Measured values from several laboratories, pooled; numbers as filed in NIAID ChemDB.

All rows: enzyme or target tests

An empty or dashed field is not shown. Conditions beyond the fields shown may differ between rows. ICn is the concentration giving n% inhibition. Inhibition is in % at the dose shown (toxicity tests: loss of growth or viability). a–b is a range or a potency band.

SMILES | target | tested at | organism | endpoint | result
NC(=O)c1cc(-c2ccc3cc(-c4nc5cc(C(=O)O)ccc5n4C4CCCCC4)ccc3n2)ccc1O | NS5B polymerase | 33 µM | Hepatitis C virus | inhibition | 97.62%
CNC(=O)c1c(-c2ccc(F)cc2)oc2cc(N(C)S(C)(=O)=O)c(OCCN3CCOCC3)cc12 | Nonstructural protein 5B |  | Hepatitis C virus | IC50 | ≤0.5 µM
N#CCCCOc1cccc(-c2nc(C(=O)O)c(O)c(=O)[nH]2)c1 | HCV polymerase |  | Hepatitis C virus | IC50 | <100 µM
CC(C)(C)OC(=O)N1CCC(NC(=O)c2ccc3c(c2)nc(-c2ccoc2)n3C2CCCCC2)(C(=O)Nc2ccc(/C=C/C(=O)O)cc2)CC1 | NS5B polymerase |  | Hepatitis C virus | IC50 | <0.5 µM
O=C(O)c1ccc2c(c1)nc(-c1ccc3nc(-c4ccc5c(c4)OCO5)ccc3c1)n2C1CCCCC1 | NS5B polymerase | 33 µM | Hepatitis C virus | inhibition | 98.44%
COc1nc(Nc2ccc3[nH]ncc3c2)nc(N2CCN(C)CC2)n1 | Nonstructural protein 5B | 1 µg/mL | Hepatitis C virus | inhibition | 26%
CC(C)Sc1ccc(-c2cnc3c(C(=O)O)cnn3c2C2CCCCC2)cc1 | RNA-dependent RNA polymerase |  | Hepatitis C virus | IC50 | 1–10 µM
CNC(=O)c1c(-c2ccc(F)cc2)oc2cc(N(C)S(C)(=O)=O)c(OCc3ccncc3)cc12 | Nonstructural protein 5B |  | Hepatitis C virus | IC50 | ≤0.5 µM
O=C(O)c1cc2nc(-c3cccs3)cc(C(F)(F)F)n2n1 | RNA-dependent RNA polymerase |  | Hepatitis C virus | IC50 | >10 µM
O=C(O)c1ccc2c(c1)nc(-c1ccc3nc(CCCO)ccc3c1)n2C1CCCCC1 | NS5B polymerase | 100 µM | Hepatitis C virus | inhibition | 93.53%
C[C@@H]1CCCC[C@H]1n1c(-c2cccs2)nc2cc(C(=O)NC3(C(=O)Nc4ccc(/C=C/C(=O)O)cc4)CCCC3)ccc21 | NS5B polymerase |  | Hepatitis C virus | IC50 | 0.5–5 µM
CCOC(=O)c1cnn2c(-c3ccc(Cl)cc3)cc(-c3ccc(Cl)cc3)nc12 | RNA-dependent RNA polymerase |  | Hepatitis C virus | IC50 | >10 µM
O=C(O)/C=C/c1ccc(NC(=O)C2(NC(=O)c3ccc4c(c3)nc(-c3cccc5c3OCO5)n4C3CCC3)CCCC2)cc1 | NS5B polymerase |  | Hepatitis C virus | IC50 | 0.5–5 µM
CC[C@@H](C=O)NC(=O)[C@@H]1C[C@@H](OCc2ccccc2)CN1C(=O)[C@@H](NC(=O)[C@H](Cc1cccnc1)NC(=O)c1cnccn1)C(C)C | NS3 protease |  | Hepatitis C virus | Ki | >100 µM
CC(C)C(NC(=O)c1ccc2c(c1)nc(-c1ccc3nc(-c4ccccc4)cnc3c1)n2C1CCCCC1)C(=O)O | NS5B polymerase | 33 µM | Hepatitis C virus | inhibition | 81.02%
O=C(O)c1nc(-c2sccc2NS(=O)(=O)Cc2ccccc2)[nH]c(=O)c1O | HCV polymerase |  | Hepatitis C virus | IC50 | <25 µM
CN(C(=O)c1ccccc1Cl)c1cc(-c2ccccc2)sc1C(=O)O | NS3 ATPase |  | Hepatitis C virus | IC50 | 5–20 µM
O=C(Nc1ccsc1-c1nc(C(=O)O)c(O)c(=O)[nH]1)NS(=O)(=O)c1ccccc1Cl | HCV polymerase |  | Hepatitis C virus | IC50 | <25 µM
CS(=O)(=O)c1ccc(Oc2ccc(-c3cnc4c(-c5nn[nH]n5)cnn4c3C3CCCCC3)cc2)cc1 | RNA-dependent RNA polymerase |  | Hepatitis C virus | IC50 | 1–10 µM
O=C(O)c1ccc2c(c1)nc(-c1ccc3nc(-c4cc(C(=O)N5CCCC5)ccc4-c4ccc([N+](=O)[O-])cc4)ccc3c1)n2C1CCCCC1 | NS5B polymerase | 33 µM | Hepatitis C virus | inhibition | 102%
COc1nc(Nc2ccc3[nH]ncc3c2)nc(NN2CCN(C)CC2)n1 | DNA polymerase | 1 µg/mL | Hepatitis B virus | inhibition | 39%
O=C(O)c1ccc2c(c1)nc(-c1ccc3nc(-c4ccc[nH]4)ccc3c1)n2C1CCCCC1 | NS5B polymerase | 33 µM | Hepatitis C virus | inhibition | 96.48%
C[C@H]1CCC[C@H](C)C1n1c(-c2ccccc2)nc2cc(C(=O)NC3(C(=O)Nc4ccc(/C=C/C(=O)O)cc4)CCCC3)ccc21 | NS5B polymerase |  | Hepatitis C virus | IC50 | 0.5–5 µM
O=C(O)c1nc(-c2sccc2NC(=O)C2Cc3ccccc3CN2)[nH]c(=O)c1O | HCV polymerase |  | Hepatitis C virus | IC50 | <25 µM
COc1nc(Nc2ccc3[nH]ncc3c2)nc(NC2CC2)n1 | DNA polymerase | 1 µg/mL | Hepatitis B virus | inhibition | 43%
O=C(NCc1cccc(Cl)c1)Nc1cscc1-c1nc(C(=O)O)c(O)c(=O)[nH]1 | HCV polymerase |  | Hepatitis C virus | IC50 | <25 µM
COc1nc(NCCc2c[nH]c3ccccc23)nc(Nc2ccc3cn[nH]c3c2)n1 | DNA polymerase | 1 µg/mL | Hepatitis B virus | inhibition | 49%
CCOC(=O)c1ccc2c(c1)nc(-c1ccc3nc(-c4cc(OC)ccc4-c4ccc(F)cc4)ccc3c1)n2C1CCCCC1 | NS5B polymerase | 100 µM | Hepatitis C virus | inhibition | 82.03%
CC[C@@H](C=O)NC(=O)[C@@H]1C[C@@H](OCc2cc3c(cc2Cl)OCO3)CN1C(=O)[C@@H](NC(=O)[C@@H](NC(=O)c1cnccn1)C(C)C)C(C)C | NS3 protease |  | Hepatitis C virus | Ki | 1–100 µM
CNC(=O)c1c(-c2ccc(F)cc2)oc2cc(N(C)S(C)(=O)=O)c(OCc3nccn3C)cc12 | Nonstructural protein 5B |  | Hepatitis C virus | IC50 | ≤0.5 µM
COc1ccc(-c2cnc3c(-c4nn[nH]n4)cnn3c2-c2ccc(OC)cc2)cc1 | RNA-dependent RNA polymerase |  | Hepatitis C virus | IC50 | >10 µM
COc1nc(Nc2ccc3cn[nH]c3c2)nc(-n2ccnc2)n1 | DNA polymerase | 0.1 µg/mL | Hepatitis B virus | inhibition | 40%
O=C(NCCN1CCN(C2CCCCC2)CC1)Nc1cscc1-c1nc(C(=O)O)c(O)c(=O)[nH]1 | HCV polymerase |  | Hepatitis C virus | IC50 | <25 µM
COc1nc(NCCCn2ccnc2)nc(Nc2ccc3cn[nH]c3c2)n1 | Nonstructural protein 5B | 0.1 µg/mL | Hepatitis C virus | inhibition | 30%
CC1CCCCC1C(=O)N(c1cc(-c2ccccc2)sc1C(=O)O)C(C)C | NS3 ATPase |  | Hepatitis C virus | IC50 | 5–20 µM
O=C(N[C@@H](Cc1cc2ccccc2[nH]1)C(=O)O)c1cc2nc(OCc3ccccc3)c(CC3CCCCC3)c(=O)n2[nH]1 | RNA-dependent RNA polymerase |  | Hepatitis C virus | IC50 | 1–10 µM
Cc1ccc(C(=O)N(c2cc(-c3ccc(F)cc3)sc2C(=O)O)C(C)C)cc1 | NS3 ATPase |  | Hepatitis C virus | IC50 | <5 µM
CC[C@H](C)C(NC(=O)c1ccc2c(c1)nc(-c1ccoc1)n2C1CCCCC1)C(=O)Nc1ccc(/C=C/C(=O)O)cc1 | NS5B polymerase |  | Hepatitis C virus | IC50 | 0.5–5 µM
CC[C@@H](C=O)NC(=O)[C@@H]1C[C@@H](OCc2cccc(OC(F)(F)F)c2)CN1C(=O)[C@@H](NC(=O)[C@@H](NC(=O)c1cnccn1)C(C)C)C(C)C | NS3 protease |  | Hepatitis C virus | Ki | 1–100 µM
CNC(=O)c1c(-c2ccc(F)cc2)oc2cc(N(Cc3cc(C)on3)S(C)(=O)=O)c(OC(C)C)cc12 | Nonstructural protein 5B |  | Hepatitis C virus | IC50 | ≤0.5 µM
O=C(O)c1sc(-c2ccccc2)cc1NC(=O)N1CCN(Cc2ccc(Cl)cc2)CC1 | NS3 ATPase |  | Hepatitis C virus | IC50 | 5–20 µM
O=C(Nc1ccccc1-c1nc(C(=O)O)c(O)c(=O)[nH]1)c1cccc([N+](=O)[O-])c1 | HCV polymerase |  | Hepatitis C virus | IC50 | <100 µM
COc1nc(Nc2ccc3cn[nH]c3c2)nc(N2CCCC2)n1 | DNA polymerase |  | Hepatitis B virus | IC50 | 0.1–1 µg/mL
C=CCN(C(=O)CCCCC)c1cc(-c2ccccc2)sc1C(=O)O | NS3 ATPase |  | Hepatitis C virus | IC50 | 5–20 µM
CC[C@@H](C=O)NC(=O)[C@@H]1C[C@@H](OCc2ccccc2)CN1C(=O)[C@@H](NC(=O)[C@@H](NC(=O)N1CCOCC1)C(C)C)C(C)C | NS3 protease |  | Hepatitis C virus | Ki | 1–100 µM
C[C@H]1CCC[C@H](C)C1n1c(-c2cccs2)nc2cc(C(=O)NC3(C(=O)Nc4ccc(/C=C/C(=O)O)cc4)CCCC3)ccc21 | NS5B polymerase |  | Hepatitis C virus | IC50 | <0.5 µM
O=C(O)c1cc2nc(-c3ccc(Oc4cccc(C(F)(F)F)c4)cc3)c(C3CCCCC3)c(=O)n2[nH]1 | RNA-dependent RNA polymerase |  | Hepatitis C virus | IC50 | <1 µM
COc1ccc(-c2ccccc2)c(-c2ccc3cc(-c4nc5cc(C(=O)O)ccc5n4C4CCCCC4)ccc3n2)c1 | NS5B polymerase | 100 µM | Hepatitis C virus | inhibition | 99.74%

Again, the opening 3 rows:

SMILES | target | tested at | organism | endpoint | result
NC(=O)c1cc(-c2ccc3cc(-c4nc5cc(C(=O)O)ccc5n4C4CCCCC4)ccc3n2)ccc1O | NS5B polymerase | 33 µM | Hepatitis C virus | inhibition | 97.62%
CNC(=O)c1c(-c2ccc(F)cc2)oc2cc(N(C)S(C)(=O)=O)c(OCCN3CCOCC3)cc12 | Nonstructural protein 5B |  | Hepatitis C virus | IC50 | ≤0.5 µM
N#CCCCOc1cccc(-c2nc(C(=O)O)c(O)c(=O)[nH]2)c1 | HCV polymerase |  | Hepatitis C virus | IC50 | <100 µM